Compound potency records, mixed from different reports. Data source: NIAID ChemDB in PubChem.

Shared fields: tests in culture; organism: HIV-1; method: cytopathic effect / MTT; endpoint: EC50

ECn: concentration that inhibits the pathogen or its effect by n%. Neighbouring rows are from separate reports. Blank or dashed fields: not listed here.

smiles | changes | strain | cell line | result
O=C(O)CCC(NC(=O)c1ccc(OCc2nc3cc(C(F)(F)F)ccc3n3cccc23)cc1)C(=O)O | - | - | MT-4 | >100 µM
C=C(C)[C@@H]1CC[C@]2(C(=O)NCCCCCCCC(=O)N[C@@H](CC(C)C)[C@@H](O)CC(=O)O)CC[C@]3(C)[C@H](CC[C@@H]4[C@@]5(C)CC[C@H](O)C(C)(C)[C@@H]5CC[C@]43C)[C@@H]12 | - | NDK | CEM | >1 µM
CCOCn1c(CC2CCCc3ccccc32)c(CC)c(=O)[nH]c1=O | RT-Y181C | N119 RT-Y181C NNRTI-resistant | MT-4 | >100 µM
C=CCOc1cccc(Cc2nc(SC)[nH]c(=O)c2CC)c1 | - | IIIB | MT-4 | >80 µM
O=C(Cc1ccccn1)NNC(=S)Nc1ccc(Cl)c(Cl)c1 | - | IIIB | MT-4 | >100 µM
CCn1cc(C(=O)O)c(=O)c2cc(F)c(N3CCN(c4ccccc4OC)CC3)c(OC(F)F)c21 | - | IIIB | C8166 | 0.2 µM
NCCCCCCCCCCCCNC(=O)Cc1cn([C@H]2C=C[C@@H](CO)O2)c(=O)[nH]c1=O | - | IIIB | CEM + CEM-SS | >100 µM
CC(C)CN(C[C@@H](O)[C@H](Cc1ccccc1)NC(=O)OCc1cccnc1)S(=O)(=O)c1ccc2nc[nH]c2c1 | - | LAI WT | MT-4 | 0.1 µM
Cc1ccc(/C=C2\C(=O)Nc3ccc(S(=O)(=O)N(CC(C)C)C[C@@H](O)[C@H](Cc4ccccc4)NC(=O)O[C@H]4CO[C@H]5OCC[C@H]54)cc32)s1 | PR-L10F M46I M71V I84V | F | MT-4 | 0.088 µM
NC1=C(C2=C(N)C(=O)c3ccccc3C2=O)C(=O)c2ccccc2C1=O | - | IIIB | CEM | 0.7 µM
N#Cc1cccn1S(=O)(=O)c1cc(Cl)ccc1N | - | IIIB | MT-4 | 3.5 µM
O=c1cc(Cc2ccc3ccccc3c2)nc(SC2CCCC2)[nH]1 | RT-Y181C | Nev^R(RT-Y181C) | MT-4 | >100 µM
NCCCCCCCCCCNC(=O)Cc1cn([C@@H]2C=C[C@H](CO)O2)c(=O)[nH]c1=O | - | IIIB | CEM + CEM-SS | >100 µM
Cc1cn(CC2(CO)CC2CO)c(=O)[nH]c1=O | - | RF | CEM | 3.2 µg/mL
O=C(Cc1ccccn1)NNC(=S)Nc1cccc(Br)c1 | - | IIIB | MT-4 | >100 µM
CCn1c(C)c(C(=O)OC)c(C(=O)OC)c1Cc1ccccc1 | - | IIIB | CEM + CEM-SS | 1.8 µM
CCOC(=O)c1ccn(S(=O)(=O)c2cc(Cl)ccc2N)c1 | - | IIIB | MT-4 | 15 µM
Cc1cn([C@H]2O[C@@H](CO)C[C@@H]2O)c(=O)[nH]c1=O | - | - | CEM + CEM-SS | >100 µM
CC(C)=CCC[C@]1(C)C=Cc2c(ccc3c2C(=O)C(=O)C(C2=C(Cl)C(=O)c4ccccc4C2=O)=C3O)O1 | - | IIIB | CEM | 0.43 µM
O=C1C(=O)c2ccccc2C(O)=C1C1=C(I)C(=O)c2ccccc2C1=O | - | IIIB | CEM | 1.8 µM
CC(C)CN(C[C@@H](O)[C@H](Cc1ccccc1)NC(=O)O[C@H]1CO[C@H]2OCC[C@H]21)S(=O)(=O)c1ccc2nc(COC(=O)O[C@H]3CO[C@H]4OCC[C@H]43)[nH]c2c1 | - | LAI WT | MT-4 | 1.585 µM
Nc1ccn([C@H]2CC[C@@H](CO)O2)c(=O)n1 | - | RF | CEM | 0.02 µg/mL
S=c1[nH]nc(Cc2ccccn2)n1-c1cccc(Br)c1 | - | IIIB | MT-4 | >100 µM
CC(C)CN(C[C@@H](O)[C@H](Cc1ccccc1)NC(=O)O[C@H]1CO[C@H]2OCC[C@H]21)S(=O)(=O)c1ccc2ncn(Cc3ccccc3)c2c1 | - | LAI WT | MT-4 | 0.001 µM
CC(C)CN(C[C@@H](O)[C@H](Cc1ccccc1)NC(=O)O[C@H]1CO[C@H]2OCC[C@H]21)S(=O)(=O)c1ccc2c(c1)/C(=C/c1ccc[nH]1)C(=O)N2 | PR-L10F M46I M71V I84V | F | MT-4 | 0.03 µM
Cc1cc(N)cc(C)c1OCC(=O)N[C@@H](Cc1ccccc1)[C@H](O)CN(CC(C)C)S(=O)(=O)c1ccc2c(c1)ncn2CCN(C)C | - | LAI WT | MT-4 | 1.995 µM
COc1c(Cl)cc(C(=CCCCCN[C@H]2CC[C@]3(C)C4CC[C@@]5(C)C(CC[C@@H]5C(C)CCCC(C)C)C4CC[C@H]3C2)c2cc(Cl)c(OC)c(C(=O)O)c2)cc1C(=O)O | - | RF | MT-4 | >316 µM
Nc1ccc(Cl)cc1S(=O)(=O)n1cccc1C(=O)OC1CCCC1 | - | IIIB | MT-4 | 2 µM
CC(C)CN(C[C@@H](O)[C@H](Cc1ccccc1)NC(=O)O[C@H]1CO[C@H]2OCC[C@H]21)S(=O)(=O)c1ccc2c(c1)/C(=C/c1cccn1C)C(=O)N2 | - | LAI | MT-4 | 0.015 µM
O=C(OC1CCCCC1)c1cccn1S(=O)(=O)c1cc(Cl)ccc1[N+](=O)[O-] | - | IIIB | MT-4 | >160 µM
C=CCCc1cccc(Cc2[nH]c(=S)[nH]c(=O)c2CC)c1 | - | RT-K103N Y181C Mutant NNRTI-resistant | MT-4 | >80 µM
COc1ccc(Nc2nc3ccccc3n3cccc23)cc1 | - | - | MT-4 | >100 µM
Cc1cccc(C)c1OCC(=O)N[C@@H](Cc1ccccc1)[C@H](O)CN(CC(C)C)S(=O)(=O)c1ccc2ncn(C)c2c1 | - | LAI WT | MT-4 | 0.063 µM
CC(C)=CCC[C@]1(C)C=Cc2c(ccc3c2C(=O)C(=O)C(C2=C(Cl)C(=O)c4ccccc4C2=O)=C3O)O1 | - | IIIB | CEM | 0.4 µM
CC(C)CN(C[C@@H](O)[C@H](Cc1ccccc1)NC(=O)O[C@H]1CCOC1)S(=O)(=O)c1ccc2ncn(CCc3ccccc3)c2c1 | - | LAI WT | MT-4 | 0.02 µM
O=S(=O)(c1cccc2cnccc12)N1CCNCC1 | - | IIIB | MT-4 | >14.8 µg/mL
Cc1cn([C@H]2C=C[C@@H](CO)O2)c(=O)[nH]c1=O | - | IIIB | CEM + CEM-SS | 0.2 µM
COC1=C(C2=C(Cl)C(=O)c3ccccc3C2=O)C(=O)c2ccccc2C1=O | - | IIIB | CEM | 1.7 µM
Cc1cn([C@H]2O[C@@H](CO)C[C@H]2O)c(=O)[nH]c1=O | - | - | CEM + CEM-SS | >100 µM
CC(C)CN(C[C@@H](O)[C@H](Cc1ccccc1)NC(=O)O[C@H]1CO[C@H]2OCC[C@H]21)S(=O)(=O)c1ccc2ncn(Cc3ccncc3)c2c1 | - | LAI WT | MT-4 | 0.032 µM
NCCCCCCCCCCNC(=O)Cc1cn([C@H]2C=C[C@@H](CO)O2)c(=O)[nH]c1=O | - | LAI | CEM + CEM-SS | 75 µM
Cc1cccc(C)c1OCC(=O)N[C@@H](Cc1ccccc1)[C@H](O)CN(CC(C)C)S(=O)(=O)c1ccc2ncn(CCc3ccccc3)c2c1 | - | LAI WT | MT-4 | 0.398 µM
COC1=C(C2=C(I)C(=O)c3ccccc3C2=O)C(=O)c2ccc3c(c2C1=O)C=CC(C)(C)O3 | - | IIIB | CEM | 2.7 µM
CCOC(=O)CCC(NC(=O)c1ccc(OCc2nc3cc(C(F)(F)F)ccc3n3cccc23)cc1)C(=O)OCC | - | - | MT-4 | >100 µM
Cc1ccc(-n2c(Cc3ccccn3)n[nH]c2=S)cc1Cl | - | IIIB | MT-4 | >100 µM
COc1c(Cl)cc(C(=CCCCCN(C(=O)C=C(c2cc(Cl)c(OC)c(C(=O)O)c2)c2cc(Cl)c(OC)c(C(=O)O)c2)[C@H]2CC[C@]3(C)C4CC[C@@]5(C)C(CC[C@@H]5C(C)CCCC(C)C)C4CC[C@H]3C2)c2cc(Cl)c(OC)c(C(=O)O)c2)cc1C(=O)O | - | RF | MT-4 | 6.9 µM
COC1=C(C2=C(Br)C(=O)c3ccccc3C2=O)C(=O)c2ccccc2C1=O | - | IIIB | CEM | 1.8 µM
CC(C)CN(C[C@@H](O)[C@H](Cc1ccccc1)NC(=O)OC1COC2OCCC12)S(=O)(=O)c1ccc2c(c1)CC(=O)N2 | PR-L10F M46I M71V I84V | F | MT-4 | 0.19 µM
Clc1ccc(Nc2nnc(Cc3ccccn3)s2)cc1Cl | - | IIIB | MT-4 | >100 µM
C=CCOc1cccc(Cc2nc(SC(C)C)nc(OC(C)C)c2CC)c1 | - | RT-Y181C Mutant NNRTI-resistant | MT-4 | >100 µM
NC(=O)[C@H](Nc1ccccc1[N+](=O)[O-])c1c(Cl)cccc1Cl | - | IIIB | MT-4 | 1.7 µM
C=CCOc1cccc(Cc2c(CC)c(=O)n(COCC)c(=O)n2COCC)c1 | - | RT-Y181C Mutant NNRTI-resistant | MT-4 | >20 µM
COc1cc(OC)cc(OCc2nc3ccccc3n3cccc23)c1 | - | - | MT-4 | >100 µM
COc1c(Cl)cc(C(=CCCNC(=O)C[C@H]2CC[C@]3(C)C4CC[C@@]5(C)C(CC[C@@H]5CC(=O)NCCC=C(c5cc(Cl)c(OC)c(C(=O)O)c5)c5cc(Cl)c(OC)c(C(=O)O)c5)C4CC[C@H]3C2)c2cc(Cl)c(OC)c(C(=O)O)c2)cc1C(=O)O | - | RF | MT-4 | 38 µM
CC(=O)c1ccc(C)cc1NC(C(N)=O)c1c(Cl)cccc1Cl | - | HE | MT-4 | 0.03 µM
C=CCOCn1c(CC2CCCc3ccccc32)c(CC)c(=O)[nH]c1=O | RT-Y181C | N119 RT-Y181C NNRTI-resistant | MT-4 | >100 µM
CCOCn1c(Cc2cccc(CCC=O)c2)c(CC)c(=O)[nH]c1=O | - | IIIB | MT-4 | 1.9 µM
CC(C)CN(C[C@@H](O)[C@H](Cc1ccccc1)NC(=O)O[C@H]1CO[C@H]2OCC[C@H]21)S(=O)(=O)c1ccc2c(c1)/C(=C/c1ccc(N(C)C)cc1)C(=O)N2 | - | LAI | MT-4 | 0.044 µM
C=C(C)[C@@H]1CC[C@]2(C(=O)NCCCCCCCC(=O)Nc3ccccc3C(=O)O)CC[C@]3(C)[C@H](CC[C@@H]4[C@@]5(C)CC[C@H](O)C(C)(C)[C@@H]5CC[C@]43C)[C@@H]12 | - | LAI | CEM | >3 µM
COC(=O)Nc1nc2ccc(S(=O)(=O)N(CC(C)C)C[C@@H](O)[C@H](Cc3ccccc3)NC(=O)O[C@H]3CO[C@H]4OCC[C@H]43)cc2[nH]1 | - | LAI WT | MT-4 | 0.01 µM
CC(=O)OCC1=C[C@@H]2C(=O)[C@]3(C=C(C)[C@H](OC(C)=O)[C@@]3(O)[C@@H]1OC(C)=O)[C@H](C)C[C@@H]1[C@H]2C1(C)C | - | IIIB MKC-442-resistant | MT-4 | 0.051 µM

8 of the rows above, restated:

smiles,changes,strain,cell line,result
Nc1ccc(Cl)cc1S(=O)(=O)n1cccc1C(=O)OC1CCCC1,-,IIIB,MT-4,2 µM
COC1=C(C2=C(Br)C(=O)c3ccccc3C2=O)C(=O)c2ccccc2C1=O,-,IIIB,CEM,1.8 µM
C=C(C)[C@@H]1CC[C@]2(C(=O)NCCCCCCCC(=O)N[C@@H](CC(C)C)[C@@H](O)CC(=O)O)CC[C@]3(C)[C@H](CC[C@@H]4[C@@]5(C)CC[C@H](O)C(C)(C)[C@@H]5CC[C@]43C)[C@@H]12,-,NDK,CEM,>1 µM
CC(=O)c1ccc(C)cc1NC(C(N)=O)c1c(Cl)cccc1Cl,-,HE,MT-4,0.03 µM
CCOCn1c(Cc2cccc(CCC=O)c2)c(CC)c(=O)[nH]c1=O,-,IIIB,MT-4,1.9 µM
O=C(Cc1ccccn1)NNC(=S)Nc1cccc(Br)c1,-,IIIB,MT-4,>100 µM
Nc1ccn([C@H]2CC[C@@H](CO)O2)c(=O)n1,-,RF,CEM,0.02 µg/mL
CC(=O)OCC1=C[C@@H]2C(=O)[C@]3(C=C(C)[C@H](OC(C)=O)[C@@]3(O)[C@@H]1OC(C)=O)[C@H](C)C[C@@H]1[C@H]2C1(C)C,-,IIIB MKC-442-resistant,MT-4,0.051 µM